Data taken from paper PMC10385049, “cCPE Fusion Proteins as Molecular Probes to Detect Claudins and Tight Junction Dysregulation in Gastrointestinal Cell Lines, Tissue Explants and Patient-Derived Organoids” (2023).

How the values were obtained:
[1] = target: non-junctional claudins in rat colon mucosa (ex vivo, Ussing chamber) (rat (endogenous in colon tissue)); experiment: immunostaining of cells or tissue
[2] = target: claudins in human colon polyps (colorectal adenoma biopsies) (human (endogenous in colon adenoma tissue)); experiment: immunostaining of cells or tissue

Substance: Alexa Fluor647-conjugated GST-cCPE-SSS (domain or fragment)
- cCPE signal relative to DAPI, normalized to cCPE-YL (relative intensity (cCPE-YL = 1)) [1]: 8.51

Substance: GST-cCPE-SSS (domain or fragment)
- cCPE signal relative to DAPI, normalized to cCPE-YL (relative intensity (cCPE-YL = 1)) [2]: 12.1
